Measured values from several laboratories, pooled; numbers as filed in NIAID ChemDB.

Common to all: tests in culture; agent: HIV-1; cell line: MT-4; endpoint: EC50

Lines come from different laboratories, so protocols vary.

smiles | strain | mutations | read by | setting | result
Cc1cc(-c2ccc(C#N)cc2)cc(C)c1Oc1ccnc(S(=O)(=O)CC(=O)Nc2ccc(C#N)cc2)n1 | IIIB | Y188L | MTT |  | 0.122 µM
C#Cc1ccc(Nc2nccc(Oc3c(C)cc(-c4cn(Cc5ccc(C#N)cc5)nn4)cc3C)n2)cc1 | IIIB | K103N | MTT |  | 0.42 µM
Cc1cccc(C)c1Oc1ccnc(Nc2ccc(C#N)cc2)n1 | IIIB | K103N | MTT |  | 0.025 µM
Cc1cc(C#N)cc(C)c1Oc1nc(Nc2ccc(C#N)cc2)nc(N)c1Br | IIIB | F227L V106A | MTT |  | 0.02 µM
CNC(C)[C@H]1O[C@H](O[C@@H]2[C@@H](O)[C@H](O[C@@H]3OC[C@@](C)(O)[C@@H](NC)[C@@H]3O)[C@@H](NC(=O)[C@@H](N)CCCN=C(N)N)C[C@H]2NC(=O)[C@@H](N)CCCN=C(N)N)[C@H](NC(=O)[C@@H](N)CCCN=C(N)N)[C@@H](O)[C@@H]1O | AMD3100-resistant |  | cytopathic effect / MTT |  | >133 µM
Cc1cc(C#Cc2cccc(N)c2)cc(C)c1Oc1ccnc(NC2CCN(Cc3cccc(C(N)=O)c3)CC2)n1 | IIIB | Y188L | MTT |  | 0.2 µM
O=c1[nH]cnc2c1ncn2[C@H]1CC[C@@H](CO)O1 | IIIB |  | MTT |  | 0.7 µg/mL
O=C(N[C@H]1c2ccccc2OC[C@H]1O)[C@H](Cc1cccnc1)C[C@H](O)CN1CCN(Cc2ccn(-c3cccc(C(F)(F)F)c3)c2)C[C@H]1C(=O)NCC(F)(F)F | K-60C Clinical isolate | PR-L10I M46I I54V Q58E L63P I64V V77I V82F I84V L90M I93L | p24 |  | <0.031 µM
Cc1ccnc2c1NC(=O)c1cccnc1N2C1CC1 | IIIB |  | syncytia |  | 0.03 µM
C1CNCCNCCCN(CCCN2CCCNCCNCCCNCC2)CCNC1 | IIIB |  | plaque count |  | 1.24 µM
Cc1cn([C@H]2C[C@H](F)[C@@H](CO)O2)c(=O)[nH]c1=O | IIIB |  | RT activity |  | 0.005 µM
Fc1ccc2nc3n(c2c1)C(c1c(Cl)cccc1Cl)SC3 | IIIB |  | cytopathic effect / MTT |  | >368 µM
Cc1cc(C#Cc2ccccn2)cc(C)c1Oc1ccnc(Nc2ccc(C#N)cc2)n1 | IIIB |  | MTT |  | 0.006 µM
Cc1c(C(C)c2c(F)cccc2F)nc(NC2CCCCC2)[nH]c1=O | IIIB |  | cytopathic effect / MTT |  | 0.026 µM
C1CNCCNCCCN[C@H]([C@@H]2CNCCCNCCNCCCN2)CNC1 | IIIB |  | cytopathic effect / MTT |  | 0.144 µM
Cc1cn([C@H]2C[C@H](N=[N+]=[N-])[C@@H](CO)O2)c(=O)[nH]c1=O | AOM |  | cytopathic effect / MTT |  | 3.7 µM
C#Cc1ccc(Nc2nccc(Oc3c(C)cc(-c4cn(CCC(=O)OC)nn4)cc3C)n2)cc1 | IIIB | E138K | MTT |  | 1.03 µM
C#CCN1C(=O)N(Cc2ccccc2)S(=O)(=O)c2cscc21 | MN |  | syncytia |  | 0.3 µM
Cc1c(Cc2c(F)cccc2F)nc(NC2CCCC2)[nH]c1=O |  | RT-Y181C | cytopathic effect / MTT |  | 0.8 µM
Nc1ccn([C@H]2CC[C@@H](CO)O2)c(=O)n1 | Clinical isolate | ddI-resistant |  | clinical isolate | 0.45 µM
CCc1cc(NCc2nc3c(Cl)ccc(Cl)c3o2)c(=O)[nH]c1C | NL4-3 | RT-K101E | p24 |  | 0.8 µM
CNc1nc(C(C)c2c(F)cccc2F)c(C)c(=O)[nH]1 | IIIB |  | cytopathic effect / MTT |  | 0.02 µM
CC(C)CN(C[C@@H](O)[C@H](Cc1ccccc1)NC(=O)O[C@H]1CO[C@H]2OCC(F)(F)[C@H]21)S(=O)(=O)c1ccc(N)cc1 | NL4-3 | A28S L33F V82I GRL04810-resistant |  |  | 0.039 µM
CC(C)=CCN1Cc2cc(Cl)cc3[nH]c(=S)n(c23)C[C@@H]1C | IIIB |  | MTT |  | 0.0007 µg/mL
Fc1cccc(F)c1C1SCc2nc3cc(C(F)(F)F)ccc3n21 | IIIB |  | cytopathic effect / MTT |  | >351 µM
Cc1cn([C@H]2C[C@H](N=[N+]=[N-])[C@@H](CO)O2)c(=O)[nH]c1=O | IIIB |  | MTT |  | 0.007 µM
COC(=O)N[C@H](C(=O)N[C@@H](Cc1ccccc1)[C@@H](O)CN(Cc1ccc(-c2ccccn2)cc1)NC(=O)[C@@H](NC(=O)OC)C(C)(C)C)C(C)(C)C | NL4-3 | A28S L33F V82I GRL04810-resistant |  |  | 0.325 µM
O=C(N[C@H]1c2ccccc2OC[C@H]1O)[C@H](Cc1cccnc1)C[C@H](O)CN1CCN(Cc2ccn(-c3ccccc3Cl)c2)C[C@H]1C(=O)NCC(F)(F)F | K-60C Clinical isolate | PR-L10I M46I I54V Q58E L63P I64V V77I V82F I84V L90M I93L | p24 |  | <0.062 µM
CC(C)Nc1cccnc1N1CCN(C(=O)c2cc3cc(NS(C)(=O)=O)ccc3[nH]2)CC1 | IIIB | RES056 | MTT |  | >37.02 µM
CC(=O)Oc1ccc(/C=C/C(=O)O[C@H](C(=O)O)[C@H](OC(=O)/C=C/c2ccc(OC(C)=O)c(OC(C)=O)c2)C(=O)O)cc1OC(C)=O | NL4-3 | AR177-resistant | cytopathic effect / MTT |  | >93 µM
CC(=O)Oc1ccc(/C=C/C(=O)O[C@H](C(=O)O)[C@H](OC(=O)/C=C/c2ccc(OC(C)=O)c(OC(C)=O)c2)C(=O)O)cc1OC(C)=O | NL4-3 | AMD3100-resistant |  |  | >93 µM
Fc1cc2nc3n(c2cc1F)C(c1c(F)cccc1F)SC3 | IIIB |  | cytopathic effect / MTT |  | >37.3 µM
Cc1ccnc2c1NC(=O)c1cccnc1N2C1CC1 | IIIB | Y188L | MTT |  | >15.02 µM
O=c1[nH]cnc2c1ncn2[C@H]1CC[C@@H](CO)O1 | EFV-resistant (RT K103R V179D P225H) | RT-K103R V179D P225H | cytopathic effect / MTT |  | 1.2 µM
Cc1cc(/C=C/c2ccccc2)cc(C)c1Oc1ccnc(Nc2ccc(C#N)cc2)n1 | IIIB | Y181C | MTT |  | 0.273 µM
Cc1cn([C@H]2C[C@H](N=[N+]=[N-])[C@@H](CO)O2)c(=O)[nH]c1=O | NL4-3 |  | cytopathic effect / MTT |  | 0.0002 µg/mL
Cc1cccc2nc3n(c12)C(c1c(F)cccc1Cl)SC3 | IIIB |  | cytopathic effect / MTT |  | >25.7 µM
O=c1cc(Cc2c(F)cccc2F)nc(NC2CCCC2)[nH]1 |  | RT-Y181C | cytopathic effect / MTT |  | 2.1 µM
O=c1[nH]cnc2c1ncn2[C@H]1CC[C@@H](CO)O1 | 263 |  | p24 |  | 3.6 µM
COc1ccc2nc3n(c2c1)C(c1c(Cl)cccc1Cl)SC3 | IIIB |  | cytopathic effect / MTT |  | >292 µM
N#Cc1ccc(-n2ccc(CN3CCN(C[C@@H](O)C[C@@H](Cc4cccnc4)C(=O)N[C@H]4c5ccccc5OC[C@H]4O)[C@H](C(=O)NCC(F)(F)F)C3)c2)cc1 | Q-60C Clinical isolate | PR-L10I N37S R41K M46I I54V I62V L63P A71V V77I V82A L90M I93L | p24 |  | <0.031 µM
Cc1cn([C@H]2C[C@H](N=[N+]=[N-])[C@@H](CO)O2)c(=O)[nH]c1=O | WT |  | cytopathic effect / MTT |  | 0.07 µM
Cc1ccc(/C=C/c2cc(C)c(Oc3ccnc(Nc4ccc(C#N)cc4)n3)c(C)c2)cc1 | IIIB | L100I | MTT |  | 0.846 µM
CN1C(=O)N(Cc2ccccc2)S(=O)(=O)c2cscc21 | HE |  | syncytia |  | 106 µM
Fc1cccc(F)c1[C@H]1SCc2nc3ccccc3n21 | MN |  | cytopathic effect / MTT |  | 0.04 µg/mL
C#Cc1ccc(Nc2nccc(Oc3c(C)cc(-c4cn(CC(=O)OC)nn4)cc3C)n2)cc1 | RES056 |  | MTT |  | >10.35 µM
Cc1ccc(-n2ccc(CN3CCN(C[C@@H](O)C[C@@H](Cc4cccnc4)C(=O)N[C@H]4c5ccccc5OC[C@H]4O)[C@H](C(=O)NCC(F)(F)F)C3)c2)cc1 | V-18C Clinical isolate | PR-L10I M36I N37D M46I R57K L63P A71V G73S I84V L90M I93L | p24 |  | <0.015 µM
Cc1cc(C#Cc2ccc(C(F)(F)F)cc2)cc(C)c1Oc1ccnc(Nc2ccc(C#N)cc2)n1 | IIIB | L100I | MTT |  | >7.353 µM
Fc1cccc(Cl)c1C1SCc2nc3cc(C(F)(F)F)ccc3n21 | IIIB |  | cytopathic effect / MTT |  | >335 µM
C#Cc1ccc(Nc2nccc(Oc3c(C)cc(-c4cn(Cc5ccccc5[N+](=O)[O-])nn4)cc3C)n2)cc1 | IIIB | E138K | MTT |  | 0.5 µM
CCN1C(=O)N(Cc2cccc(Cl)c2)S(=O)(=O)c2cscc21 | RF |  | syncytia |  | 3.6 µM
Cc1cn([C@H]2C=C[C@@H](COC(=O)NCCSC(=O)OC[C@@H]3CC[C@H](n4cnc5c(=O)[nH]cnc54)O3)O2)c(=O)[nH]c1=O | WT |  | cytopathic effect / MTT |  | 43 µM
Fc1cccc(F)c1C1SCc2nc3ccccc3n21 | IIIB |  | cytopathic effect / MTT |  | 0.6 µM
Cc1cc(C#Cc2ccccc2)cc(C)c1Oc1ccnc(Nc2ccc(C#N)cc2)n1 | IIIB | L100I | MTT |  | 1.01 µM
COc1ccc(S(=O)(=O)N(CC(C)C)C[C@@H](O)[C@H](Cc2ccccc2)NC(=O)O[C@H]2CO[C@H]3OCC(F)(F)[C@H]32)cc1 | NL4-3 | M46I I50V N38K M36I GRL05010-resistant |  |  | 0.029 µM
Cc1cc(/C=C/C#N)cc(C)c1Oc1ccnc(S(=O)(=O)CC(=O)Nc2ccc(F)cc2)n1 |  | E138K | MTT |  | 0.023 µM
O=C(c1ccccc1)c1ccc2c(c1)nc1n2C(c2c(F)cccc2F)SC1 | IIIB |  | cytopathic effect / MTT |  | >26.7 µM
C#Cc1ccc(Nc2nccc(Oc3c(C)cc(-c4cn(CC(=O)Nc5ccc(Br)cc5)nn4)cc3C)n2)cc1 | IIIB | F227L and V106A | MTT |  | >19.78 µM
O=C(N[C@H]1c2ccccc2OC[C@H]1O)[C@H](Cc1cccnc1)C[C@H](O)CN1CCN(Cc2ccn(-c3cc(Cl)c(Cl)c(Cl)c3)c2)C[C@H]1C(=O)NCC(F)(F)F | V-18C Clinical isolate | PR-L10I M36I N37D M46I R57K L63P A71V G73S I84V L90M I93L | p24 |  | <0.015 µM
CO[P@](=O)(c1cc(C)cc(/C=C/C#N)c1)c1c(C(N)=O)[nH]c2ccc(Cl)c(F)c12 | NL4-3 | K103N/Y181C | ELISA |  | 0.0028 µM
CC(=O)c1ccc(C)cc1NC(C(N)=O)c1c(Cl)cccc1Cl | ADP144 (RT-L74V) | RT-L74V | MTT |  | 0.002 µg/mL
C#Cc1ccc(Nc2nccc(Oc3c(C)cc(-c4cn(CC(=O)Nc5ccc(F)cc5)nn4)cc3C)n2)cc1 | IIIB |  | MTT |  | 1.66 µM
Cc1ccnc2c1NC(=O)c1cccnc1N2C1CC1 | IIIB | Y188L | MTT |  | >15.9 µM

A second listing of 9 rows from above:

smiles,strain,mutations,read by,setting,result
Cc1ccc(-n2ccc(CN3CCN(C[C@@H](O)C[C@@H](Cc4cccnc4)C(=O)N[C@H]4c5ccccc5OC[C@H]4O)[C@H](C(=O)NCC(F)(F)F)C3)c2)cc1,V-18C Clinical isolate,PR-L10I M36I N37D M46I R57K L63P A71V G73S I84V L90M I93L,p24,,<0.015 µM
C#Cc1ccc(Nc2nccc(Oc3c(C)cc(-c4cn(CC(=O)Nc5ccc(F)cc5)nn4)cc3C)n2)cc1,IIIB,,MTT,,1.66 µM
Fc1ccc2nc3n(c2c1)C(c1c(Cl)cccc1Cl)SC3,IIIB,,cytopathic effect / MTT,,>368 µM
Fc1cccc(F)c1C1SCc2nc3ccccc3n21,IIIB,,cytopathic effect / MTT,,0.6 µM
CNC(C)[C@H]1O[C@H](O[C@@H]2[C@@H](O)[C@H](O[C@@H]3OC[C@@](C)(O)[C@@H](NC)[C@@H]3O)[C@@H](NC(=O)[C@@H](N)CCCN=C(N)N)C[C@H]2NC(=O)[C@@H](N)CCCN=C(N)N)[C@H](NC(=O)[C@@H](N)CCCN=C(N)N)[C@@H](O)[C@@H]1O,AMD3100-resistant,,cytopathic effect / MTT,,>133 µM
Cc1cc(C#Cc2ccccc2)cc(C)c1Oc1ccnc(Nc2ccc(C#N)cc2)n1,IIIB,L100I,MTT,,1.01 µM
C1CNCCNCCCN(CCCN2CCCNCCNCCCNCC2)CCNC1,IIIB,,plaque count,,1.24 µM
CC(=O)c1ccc(C)cc1NC(C(N)=O)c1c(Cl)cccc1Cl,ADP144 (RT-L74V),RT-L74V,MTT,,0.002 µg/mL
C#Cc1ccc(Nc2nccc(Oc3c(C)cc(-c4cn(CCC(=O)OC)nn4)cc3C)n2)cc1,IIIB,E138K,MTT,,1.03 µM

ECn: concentration that inhibits the pathogen or its effect by n%. An empty or dashed field is not shown.